Anti-infective test results gathered from many reports (values: NIAID ChemDB through PubChem).

Common to all: enzyme or target tests; species: Pneumocystis carinii; protein: DHFR; read-out: IC50

ICn is the concentration giving n% inhibition. Conditions beyond the fields shown may differ between rows.

structure | value
Nc1nc(N)c2c(Br)cccc2n1 | 0.28 µM
Nc1nc(N)c2nc(CCc3ccc(C(F)(F)F)cc3)cnc2n1 | 3.8 µM
Nc1nc2occ(-c3cccc([N+](=O)[O-])c3)c2c(=O)[nH]1 | 140 µM
COc1ccc(OC)c(N(C)Cc2csc3nc(N)nc(N)c23)c1 | >10 µM
CC(C)c1nc2nc(N)nc(N)c2nc1C(C)C | 0.2 µM
CCOC(=O)CC[C@H](NC(=O)c1ccc(-c2coc3nc(N)[nH]c(=O)c23)cc1)C(=O)OCC | >300 µM
CCc1nc2nc(N)nc(N)c2c2c1CCCC2 | >30 µM
Cl.Nc1nc(N)c2nc(CCc3ccncc3)cnc2n1 | 35.5 µM
CC(C)Cc1nc2nc(N)nc(N)c2nc1CC(C)C | 0.082 µM
COc1ccc(C2c3c(nc(N)[nH]c3=O)OC2[N+](=O)[O-])cc1 | 100 µM
COc1ccc(OC)c(NCc2csc3nc(N)nc(N)c23)c1 | >10 µM
COc1cc(C2COc3nc(N)[nH]c(=O)c32)cc(OC)c1OC | 60 µM
Cc1cc2nc(N)nc(N)c2cc1C | 5.3 µM
Nc1nc(N)c2nc(CCc3ccccc3)cnc2n1 | 8.4 µM
Nc1nc(N)c2cc(Br)ccc2n1 | 1.6 µM
COc1cc(CCc2cnc3nc(N)nc(N)c3n2)cc(OC)c1OC | 6 µM
Cc1ccc2c(N)nc(N)nc2c1 | 65 µM
Nc1nc(N)c2nc(CCc3ccc4ccccc4c3)cnc2n1 | 0.52 µM
COc1ccc(N2C(N)=NC(N)=NC2(C)C)c(OC)c1OC | 20.4 µM
CCOC(=O)CC[C@H](NC(=O)c1ccc(C2COc3nc(N)[nH]c(=O)c32)cc1)C(=O)OCC | >300 µM
Cc1cccc2nc(N)nc(N)c12 | 1.5 µM
CCCCCc1nc2nc(N)nc(N)c2nc1CCCCC | 1.5 µM
COc1cc(OC)cc(N2C(N)=NC(N)=NC2(C)C)c1 | 12.9 µM
COc1ccc(C2c3c(nc(N)[nH]c3=O)OC2[N+](=O)[O-])cc1OC | 100 µM

Repeating the final 3 entries:

structure,value
CCCCCc1nc2nc(N)nc(N)c2nc1CCCCC,1.5 µM
COc1cc(OC)cc(N2C(N)=NC(N)=NC2(C)C)c1,12.9 µM
COc1ccc(C2c3c(nc(N)[nH]c3=O)OC2[N+](=O)[O-])cc1OC,100 µM